Results of unrelated studies side by side (data: NIAID ChemDB).

Shared fields: whole-cell or culture tests; agent: Plasmodium falciparum; read-out: EC50

An empty or dashed field is not shown. ECn: concentration that inhibits the pathogen or its effect by n%. Rows are shuffled and stem from different studies.

smiles | method | strain | mutations | cells | value
C[C@H]1Cc2c([nH]c3cc(Cl)c(F)cc23)[C@@]2(N1)C(=O)Nc1ccc(Cl)cc12 | SYBR Green / fluorescence | GNF-Pf4492R-3 | GNF-Pf4492-resistant A187V | - | 0.00239 µM
NCCCCCCCC(=O)NC(CCCC[NH3+])C(=O)NCCCCCCCC(=O)NC(CCCC[NH3+])C(=O)NCCCCCCCC(=O)NC(CCCC[NH3+])C(N)=O | hypoxanthine uptake | FCR3 | - | - | 100 µM
CCO/C(=N/NC(=O)OC)C(C)(O)c1ccc(Cl)c(C)c1 | hypoxanthine uptake / radiometric | 3D7 | - | - | 5.1 µM
O=C(O)/C=C/c1ccc(O)cc1 | hypoxanthine uptake / radiometric | W2 Mef | - | - | 12.89 µM
NC1=Nc2cccc(Br)c2C1(O)Cc1ccccc1 | - | 3D7 | - | - | >5 µM
CCOC(=O)N/N=C(/OCC)C(C)(O)c1ccc(Cl)cc1 | hypoxanthine uptake / radiometric | 3D7 | - | - | 5 µM
COC(=O)C1=C(C(=O)OC)C2N(Cc3ccccc3)c3ccccc3[C@@]23C[C@@H](C(=O)OC)N(S(=O)(=O)c2ccc(C(F)(F)F)cc2)C3=N1 | SYBR Green / fluorescence | 7G8 GB4 | - | - | 1.7 µM
Clc1ccc2c(NCCCNc3nc(Nc4ccccc4)nc(N4CCOCC4)n3)ccnc2c1 | - | D6 | - | - | 0.44 µM
CCCCCCCCCCCC(=O)NC(CCCC[NH3+])C(=O)NCCCCCCCC(=O)NC(CCCC[NH3+])C(=O)NCCCCCCCC(=O)NC(CCCC[NH3+])C(=O)NCCCCCCCC(=O)NC(CCCC[NH3+])C(=O)NCCCCCCCC(=O)NC(CCCC[NH3+])C(N)=O | hypoxanthine uptake | FCR3 | - | - | 2.4 µM
CCO/C(=N/NC(=O)OC(C)(C)C)C(C)(O)c1ccc2ccccc2c1 | hypoxanthine uptake / radiometric | 3D7 | - | - | 4.4 µM
CCOc1ccccc1C(=O)n1cc(-c2ccnc(N)n2)c2ccccc21 | LDH | D6 | - | - | >14.43 µM
COC(=O)C1=C(C)N(Cc2ccc(C(F)(F)F)cc2)C(=NCc2cccc(C(F)(F)F)c2)NC1c1cccc(Cl)c1 | SYBR Green / fluorescence | GB4 | - | - | 0.02 µM
Cc1ccccc1C1(O)C(N)=Nc2ccccc21 | - | 3D7 | - | - | 0.112 µM
NC(=O)C(CCCC[NH3+])NC(=O)CCCCCCCNC(=O)C(CCCC[NH3+])NC(=O)CCCCCCCNC(=O)C(N)CCCC[NH3+] | hypoxanthine uptake | FCR3 | - | - | 180 µM
CC1(C)C2CC=C3C(CC[C@@]4(C)C5C[C@](C)(C(=O)O)CC[C@]5(C)CC[C@]34C)[C@@]2(C)CC[C@H]1O | SYBR Green | FCM29 | CQ-resistant | - | 16.4 µM
C[C@H]1[C@@H](O)O[C@@H]2OC3(C)CC[C@H]4[C@H](C)CC[C@@H]1[C@@]24OO3 | LDH / absorbance | 3D7 | - | Human A+/O+ erythrocytes | 0.01 µg/mL
O=C(O)COc1ccc(/C=C/C(=O)c2ccccc2)cc1 | fluorescence | W2 | - | - | >10 µM
CCO/C(=N/NC(=O)NC)C(C)(O)c1ccc2ccccc2c1 | hypoxanthine uptake / radiometric | 3D7 | - | - | 6.2 µM
CCOC(=O)C1=C(C(=O)OCC)C2N(Cc3ccccc3C(F)(F)F)c3ccccc3[C@@]23C[C@@H](C(=O)OC)N(S(=O)(=O)c2c(C)noc2C)C3=N1 | SYBR Green / fluorescence | CP250 | - | - | 0.6 µM
OCCNc1nc(NCCCNc2ccnc3cc(Cl)ccc23)nc(N2CCOCC2)n1 | - | W2 | - | - | 2.06 µM
NC(=O)C(CCCC[NH3+])NC(=O)CCCCCCCNC(=O)C(CCCC[NH3+])NC(=O)CCCCCCCNC(=O)C(CCCC[NH3+])NC(=O)CCCCCCCNC(=O)C(CCCC[NH3+])NC(=O)CCCCCCCNC(=O)C(CCCC[NH3+])NC(=O)CCCCCCCNC(=O)C(N)CCCC[NH3+] | hypoxanthine uptake | FCR3 | - | - | 84 µM
COC(=O)c1cccc(C2(O)C(N)=Nc3ccc(Cl)cc32)c1 | - | 3D7 | - | - | 0.783 µM
NCCCCCCCCCCCC(=O)NC(CCCC[NH3+])C(=O)NCCCCCCCCCCCC(=O)NC(CCCC[NH3+])C(=O)NCCCCCCCCCCCC(=O)NC(CCCC[NH3+])C(N)=O | hypoxanthine uptake | FCR3 | - | - | 1.4 µM
COc1ccccc1C1(O)C(N)=Nc2ccc(Cl)cc21 | - | 3D7 | - | - | 0.024 µM
C[C@@H]1CC[C@]2(C=O)CC[C@]3(C)C(=CCC4[C@@]5(C)C[C@H](O)[C@H](O)C(C)(C)C5CC[C@]43C)C2[C@]1(C)O | hypoxanthine uptake / radiometric | W2 Mef | - | - | 1.86 µM
CCc1ccc(Nc2nc(NCCNc3ccnc4cc(Cl)ccc34)nc(N3CCOCC3)n2)cc1 | - | D6 | - | - | 0.47 µM
O=C1NC(c2c[nH]c3ccc(Br)cc23)Nc2ccccc21 | LDH | W2 | - | - | >14.49 µM
CCOC(=O)C1=C(C(=O)OCC)C2N(Cc3ccccc3C(F)(F)F)c3ccccc3[C@@]23C[C@@H](C(=O)OC)N(S(=O)(=O)c2ccc(C)cc2)C3=N1 | SYBR Green / fluorescence | 7G8 GB4 | - | - | 0.8 µM
C=CCOc1ccc(/C=C/C2C(=O)OC(C)(C)OC2=O)cc1OC | SYBR Green | 3D7 | - | - | >100 µM
CCN(CC)CCCC(C)Nc1ccnc2cc(Cl)ccc12 | MTT / LDH | Dd2 | - | RBC | 0.34 µM
COC(=O)C1=C(C)N(Cc2cccc(C(F)(F)F)c2)C(=NCc2cccc(C(F)(F)F)c2)NC1c1cccc(Cl)c1 | SYBR Green / fluorescence | GB4 | - | - | 0.04 µM
C=CCOc1ccc(/C=C/C(=O)c2ccco2)cc1OC | SYBR Green | 3D7 | - | - | 95 µM
COc1ccc2c(c1)C(O)(c1ccccc1)C(N)=N2 | - | 3D7 | - | - | 0.024 µM
CCN(CC)CCCC(C)Nc1ccnc2cc(Cl)ccc12 | LDH / absorbance | D10 | - | - | 0.00549 µM
C=CCOc1ccc(/C=C/C2C(=O)NC(=O)NC2=O)cc1OC | SYBR Green | 3D7 | - | - | >100 µM
NCCNc1ccnc2cc(Cl)ccc12 | LDH | D10 | - | - | 1.37 µM
CCCCCCCCCCCC(=O)NC(CCCC[NH3+])C(=O)NC(CCCC[NH3+])C(=O)NCCCCCCCCCC(=O)NC(CCCC[NH3+])C(=O)NC(CCCC[NH3+])C(=O)NCCCCCCCCCC(=O)NC(CCCC[NH3+])C(N)=O | hypoxanthine uptake | NF54 | - | - | >10 µM
CN(Cc1ccc(F)cc1)C(=O)c1c[n+]2c(cn1)CN=C2c1ccc(C(F)(F)F)cc1 | SYBR Green | - | - | - | >10 µM
C[C@H]1CCc2c([nH]c3ccccc23)[C@@]2(N1)C(=O)Nc1ccc(Cl)cc12 | SYBR Green / fluorescence | Dd2 (CM1) | Multidrug-resistant | - | 0.0318 µM
CCN(CC)CCCC(C)Nc1ccnc2cc(Cl)ccc12 | absorbance | 3D7 | - | - | 0.013 µM
CCN(CC)CCCC(C)Nc1ccnc2cc(Cl)ccc12 | hypoxanthine uptake / radiometric | D6 | - | - | 0.017 µM
CCCCCCCCCCCC(=O)NC(CCCC[NH3+])C(=O)NCCCCCCCC(=O)NC(CCCC[NH3+])C(=O)NCCCCCCCC(=O)NC(CCCC[NH3+])C(N)=O | hypoxanthine uptake | FCR3 | - | - | 0.2 µM
Nc1nccc(-c2cn(Cc3ccc(Cl)s3)c3ccccc23)n1 | LDH | W2 | - | - | >14.49 µM
CCN1C(=NCc2cccc(Cl)c2)N[C@H](c2cccc(C(F)(F)F)c2)C(C(=O)OC)=C1C | SYBR Green / fluorescence | 7G8 | - | - | 9.5 µM

A second listing of 4 rows from above:

smiles,method,strain,mutations,cells,value
CCCCCCCCCCCC(=O)NC(CCCC[NH3+])C(=O)NC(CCCC[NH3+])C(=O)NCCCCCCCCCC(=O)NC(CCCC[NH3+])C(=O)NC(CCCC[NH3+])C(=O)NCCCCCCCCCC(=O)NC(CCCC[NH3+])C(N)=O,hypoxanthine uptake,NF54,-,-,>10 µM
CCN(CC)CCCC(C)Nc1ccnc2cc(Cl)ccc12,absorbance,3D7,-,-,0.013 µM
NC(=O)C(CCCC[NH3+])NC(=O)CCCCCCCNC(=O)C(CCCC[NH3+])NC(=O)CCCCCCCNC(=O)C(N)CCCC[NH3+],hypoxanthine uptake,FCR3,-,-,180 µM
CCOC(=O)C1=C(C(=O)OCC)C2N(Cc3ccccc3C(F)(F)F)c3ccccc3[C@@]23C[C@@H](C(=O)OC)N(S(=O)(=O)c2ccc(C)cc2)C3=N1,SYBR Green / fluorescence,7G8 GB4,-,-,0.8 µM